# Taken from: PubChem BioAssay AID504761 (Drosophila RNAi Screening Center, 2011)
# Aim: 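Genome-wide fly cell screen for genes dengue virus requires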 (primary screen)
# Cell system: D.Mel-2 cells from Drosophila
# Reagents: long dsRNA against Drosophila genes
# Conditions: infection with dengue virus type 2; dose and infection time not stated
# Detection: 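Per well on two replicate plates, imaging gave the percent of cells positive for viral envelope protein, ranked by infection, and a nuclear count of cells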
# Direction: infection score: higher = more virus-infected cells
# Rule for the call: 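Very low infection ranking in both replicate wells (chance probability at most 0.065), then a retest showing infection dropped 1.5-fold or more at p below 0.05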
# Calls: active = confirmed: knock-down lowers infection; inactive = not picked or not confirmed
# The deposit covers about 22,000 reagents; this is a random part of those with a known target gene and a result. Of all reagents, 116 (0.52%) were called active. 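Calls depend on retest data that are not deposited; infection was ranked per plate without normalising between plates; the unit of the infection score is not given.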 Entries without a mark were called inactive. Names joined by + are all predicted targets of the reagent. Further read-outs or replicates are left out here. The record does not give: the amount of reagent, the time to read-out.
target gene,DRSC id,"infection score, replicate 1","infection score, replicate 2"
MsR1,DRSC08615,2.33,1.21
MsR1,DRSC26467,2.57,2.21
Trm1,DRSC02951,8.83,8.76
CG12608,DRSC19472,3.14,2.33
CG8112,DRSC16377,3.64,11.1
Inx2,DRSC18783,16.4,3.6
Inx2,DRSC24455,1.5,3.38
erm,DRSC00700,5.35,14.7
ort,DRSC16240,13.9,2.38
CG14757,DRSC06492,,10.1
CG14757,DRSC25690,8.2,10.6
sut1,DRSC07700,11.8,8.38
Scsalpha1,DRSC08698,19.9,3.02
Scsalpha1,DRSC26856,9.57,6.6
betaTub60D,DRSC04673,2.17,5.61
betaTub60D,DRSC22218,1.18,1.68
betaTub60D,DRSC23872,6.26,7.56
CG12617,DRSC02176,3.94,3.68
CG12617,DRSC28197,1.63,15.9
lok,DRSC03567,5.4,2.51
lok,DRSC25866,1.2,2.87
comm3,DRSC09993,1.73,4.54
comm3,DRSC09994,0.8,3.62
comm3,DRSC09995,0.81,1.52
Shrm,DRSC06438,10.7,18.3
Shrm,DRSC07221,34,14
Shrm,DRSC23067,1.37,26.3
Shrm,DRSC25072,3,7.26
Shrm,DRSC27498,1.58,4.14
CG7294,DRSC03041,2.79,1.59
CG7294,DRSC25336,5.68,5.93
lky,DRSC20682,7.72,0.64
lky,DRSC27161,11.6,14.8
CG7695,DRSC16289,3.58,7.18
Coq6,DRSC03040,4.29,10.2
Coq6,DRSC29622,1.16,11.4
CG31910 + snoRNA:Me28S-G2743 (retired record),DRSC00946,3.32,1.01
ND-51L1,DRSC06072,3.34,10.7
wls,DRSC10605,8,7.74
wls,DRSC29313,4.1,
CG12746,DRSC12218,3.9,13.3
CG13202,DRSC06326,7.08,14.8
CG31606,DRSC01012,0.69,1.03
CG12020,DRSC08226,2.63,1.92
CG12020,DRSC28730,27.6,23.6
Hel89B,DRSC16700,2.38,7.38
Hel89B,DRSC21575,0.51,9.15
S-Lap3,DRSC10956,7.43,11.5
S-Lap3,DRSC23958,7.62,8.29
CG18508,DRSC18155,0.66,3.54
CG18508,DRSC25633,3.6,5.28
pcm,DRSC20361,,3.99
dgrn,DRSC12154,5.7,29.1
CG10321,DRSC04061,19.1,2.62
CG10321,DRSC28284,14.2,15.9
CG5569,DRSC04514,6.11,15
ATPsynF,DRSC04482,28.6,13.3
nAChRalpha6,DRSC01096,4.87,1.9
nAChRalpha6,DRSC02738,15.9,6.63

Quoted from the entries so far for reference:
target gene,DRSC id,"infection score, replicate 1","infection score, replicate 2"
Coq6,DRSC29622,1.16,11.4
CG31910 + snoRNA:Me28S-G2743 (retired record),DRSC00946,3.32,1.01
ND-51L1,DRSC06072,3.34,10.7
